In the data set the test system is HSV-1/L2/R^ACV. The conditions noted are these: Strain HSV-1/L2/R^ACV. The procedure:
Herpes simplex virus type 1 (HSV-1) strain L2 was obtained from the State’s collection of viruses at FSBI «N. F. Gamaleya National Research Centre for Epidemiology and Microbiology, Russian Ministry of Health, Russia» («D. I. Ivanovsky Institute of Virology» subdivision).
Antiviral activity in vitro was measured by the method of the cytopathic effect (CPE) inhibition assay. In 96-well plastic plates with the 24 h generated cell monolayer, 2-fold serial dilutions of the compounds were prepared. Cells infected with MOI of 0.1 PFU/cell were incubated at 37 °C in 5% CO2 atmosphere. […] Antiviral activity was assessed by determining of IC50 and IC95.
Three controls were used: (1) Toxicity control. Uninfected cells were incubated in the presence of the drug in the same concentration range as in the experiment. (2) Virus control. […] (3) Cell control. Uninfected cell cultures were incubated in the maintenance medium, which contained no drug.

Turning to “5-Phenyl-1,2,4-triazole-3-thione [Compound 4]”, the “SI (ratio of CC50 to IC50)” value was above 2.

The record behind these values is publication PMC11274511, “Synthesis of Substituted 1,2,4-Triazole-3-Thione Nucleosides Using E. coli Purine Nucleoside Phosphorylase” (Biomolecules, 2024).
